{"source": "PubChem BioAssay AID1259414 (Drosophila RNAi Screening Center, 2018)", "aim": "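Fly genes that alter Wolbachia amount inside host cells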 (primary screen)", "system": "Drosophila JW18 cells infected with Wolbachia", "knock-down reagent": "long dsRNA against Drosophila genes, 0.25 µg dsRNA per well of a 384-well plate", "timing": "5 days", "treatment": "cells persistently infected with Wolbachia before knock-down; no added drug", "measured": "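Imaged fluorescence in situ signal for Wolbachia 23S rRNA per DAPI-counted host cell, given as a robust z-score within each plate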", "reading the numbers": "Wolbachia per cell robust z: higher = more Wolbachia per host cell than the plate typical", "call rule": "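Hit when robust z is 1.5 or more, or -1.5 or less, in at least two of three replicates; excludes dsRNAs with several or no targets, genes not expressed in JW18 and well A1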", "note": "The screen tested about 24,000 reagents; this is a random part of those with a known target gene and a result. In the full data, about 1,210 (5%) were called active. 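Inactive calls also include excluded dsRNAs with several or no targets, genes unexpressed in JW18, and well A1, regardless of score.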 A plus sign joins genes that one reagent is predicted to hit."}
{"Gene":"CG8407","dsRNA":"DRSC07167","Wolbachia per cell robust z, rep 1":-0.14,"Wolbachia per cell robust z, rep 2":0.131,"Wolbachia per cell robust z, rep 3":1.15,"Call":"inactive"}
{"Gene":"CG3842","dsRNA":"DRSC18326","Wolbachia per cell robust z, rep 1":1.07,"Wolbachia per cell robust z, rep 2":-0.428,"Wolbachia per cell robust z, rep 3":-2.2,"Call":"inactive"}
{"Gene":"CG3842","dsRNA":"DRSC26584","Wolbachia per cell robust z, rep 1":0.0179,"Wolbachia per cell robust z, rep 2":-0.103,"Wolbachia per cell robust z, rep 3":0.202,"Call":"inactive"}
{"Gene":"park","dsRNA":"DRSC11618","Wolbachia per cell robust z, rep 1":0.456,"Wolbachia per cell robust z, rep 2":1.2,"Wolbachia per cell robust z, rep 3":0.646,"Call":"inactive"}
{"Gene":"AttB","dsRNA":"DRSC06734","Wolbachia per cell robust z, rep 1":-0.0717,"Wolbachia per cell robust z, rep 2":0.153,"Wolbachia per cell robust z, rep 3":0.988,"Call":"inactive"}
{"Gene":"AttB","dsRNA":"DRSC28997","Wolbachia per cell robust z, rep 1":-3.47,"Wolbachia per cell robust z, rep 2":-0.859,"Wolbachia per cell robust z, rep 3":0.626,"Call":"inactive"}
{"Gene":"lncRNA:CR33218","dsRNA":"DRSC22944","Wolbachia per cell robust z, rep 1":-2.82,"Wolbachia per cell robust z, rep 2":-4.36,"Wolbachia per cell robust z, rep 3":-2.71,"Call":"inactive"}
{"Gene":"CG32797 + CR32733","dsRNA":"DRSC17705","Wolbachia per cell robust z, rep 1":-0.283,"Wolbachia per cell robust z, rep 2":0.209,"Wolbachia per cell robust z, rep 3":0.604,"Call":"inactive"}
{"Gene":"Gr36a","dsRNA":"DRSC22663","Wolbachia per cell robust z, rep 1":-1.51,"Wolbachia per cell robust z, rep 2":-0.929,"Wolbachia per cell robust z, rep 3":-1.24,"Call":"inactive"}
{"Gene":"Gr36a","dsRNA":"DRSC27724","Wolbachia per cell robust z, rep 1":-0.536,"Wolbachia per cell robust z, rep 2":0.817,"Wolbachia per cell robust z, rep 3":0.84,"Call":"inactive"}
{"Gene":"CG14327","dsRNA":"DRSC14806","Wolbachia per cell robust z, rep 1":0.534,"Wolbachia per cell robust z, rep 2":1.03,"Wolbachia per cell robust z, rep 3":0.44,"Call":"inactive"}
{"Gene":"bbg","dsRNA":"DRSC11077","Wolbachia per cell robust z, rep 1":0.645,"Wolbachia per cell robust z, rep 2":-0.161,"Wolbachia per cell robust z, rep 3":-0.4,"Call":"inactive"}
{"Gene":"bbg","dsRNA":"DRSC11079","Wolbachia per cell robust z, rep 1":0.123,"Wolbachia per cell robust z, rep 2":1.1,"Wolbachia per cell robust z, rep 3":-0.334,"Call":"inactive"}
{"Gene":"bbg","dsRNA":"DRSC25910","Wolbachia per cell robust z, rep 1":-1.54,"Wolbachia per cell robust z, rep 2":-3,"Wolbachia per cell robust z, rep 3":-1.24,"Call":"active"}
{"Gene":"bbg","dsRNA":"DRSC27292","Wolbachia per cell robust z, rep 1":-1.67,"Wolbachia per cell robust z, rep 2":-6.24,"Wolbachia per cell robust z, rep 3":0.505,"Call":"active"}
{"Gene":"bmm","dsRNA":"DRSC10502","Wolbachia per cell robust z, rep 1":-0.391,"Wolbachia per cell robust z, rep 2":-0.109,"Wolbachia per cell robust z, rep 3":-0.1,"Call":"inactive"}
{"Gene":"smu (retired record)","dsRNA":"DRSC18679","Wolbachia per cell robust z, rep 1":0.549,"Wolbachia per cell robust z, rep 2":0.582,"Wolbachia per cell robust z, rep 3":0.157,"Call":"inactive"}
{"Gene":"smu (retired record)","dsRNA":"DRSC25729","Wolbachia per cell robust z, rep 1":-0.462,"Wolbachia per cell robust z, rep 2":-0.969,"Wolbachia per cell robust z, rep 3":-0.795,"Call":"inactive"}
{"Gene":"CG2021","dsRNA":"DRSC08546","Wolbachia per cell robust z, rep 1":-0.149,"Wolbachia per cell robust z, rep 2":-0.105,"Wolbachia per cell robust z, rep 3":0.503,"Call":"inactive"}
{"Gene":"CG2021","dsRNA":"DRSC27282","Wolbachia per cell robust z, rep 1":-1.28,"Wolbachia per cell robust z, rep 2":-0.369,"Wolbachia per cell robust z, rep 3":-1.06,"Call":"inactive"}
{"Gene":"unpg","dsRNA":"DRSC07713","Wolbachia per cell robust z, rep 1":1.68,"Wolbachia per cell robust z, rep 2":-1.02,"Wolbachia per cell robust z, rep 3":0.826,"Call":"inactive"}
{"Gene":"unpg","dsRNA":"DRSC28861","Wolbachia per cell robust z, rep 1":-0.572,"Wolbachia per cell robust z, rep 2":2.86,"Wolbachia per cell robust z, rep 3":0.0136,"Call":"inactive"}
{"Gene":"l(2)10685","dsRNA":"DRSC00665","Wolbachia per cell robust z, rep 1":0.0138,"Wolbachia per cell robust z, rep 2":-3.74,"Wolbachia per cell robust z, rep 3":-1.78,"Call":"inactive"}
{"Gene":"l(2)10685","dsRNA":"DRSC27739","Wolbachia per cell robust z, rep 1":0.745,"Wolbachia per cell robust z, rep 2":0.666,"Wolbachia per cell robust z, rep 3":0.0914,"Call":"inactive"}

2 consecutive reagents already listed, for reference:
{"Gene":"AttB","dsRNA":"DRSC28997","Wolbachia per cell robust z, rep 1":-3.47,"Wolbachia per cell robust z, rep 2":-0.859,"Wolbachia per cell robust z, rep 3":0.626,"Call":"inactive"}
{"Gene":"lncRNA:CR33218","dsRNA":"DRSC22944","Wolbachia per cell robust z, rep 1":-2.82,"Wolbachia per cell robust z, rep 2":-4.36,"Wolbachia per cell robust z, rep 3":-2.71,"Call":"inactive"}
